Data published in PMC12768970.

Target: T1, Crp (UniProt C0MAI4)
T1 sequence (looked up): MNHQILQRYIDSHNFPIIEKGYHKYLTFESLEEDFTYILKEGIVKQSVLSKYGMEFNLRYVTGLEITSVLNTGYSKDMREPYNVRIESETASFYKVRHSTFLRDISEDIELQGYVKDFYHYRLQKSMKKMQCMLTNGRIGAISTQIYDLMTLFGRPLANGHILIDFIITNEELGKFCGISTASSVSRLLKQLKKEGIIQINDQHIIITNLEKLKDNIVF
Experiment: EMSA
Details: cAMP; 20 mM Tris-HCl pH 7.5, 30 mM KCl, 1 mM DTT, 1 mM EDTA, 10% glycerol; 80 ng DNA, 1-2 ug protein, 20 ul, 30 min, 37 C; native 8% PAGE in 0.5x TBE; recombinant protein; residues 1-219; protein details: His tag (pCold I); probe letters rebuilt from the primers and the genome

“CAATTCGCCAACCGTTTGTATATAAGGATCCAAAAATTCTTCCCAATCTAAAGCCATCCTTTCTCTCCTTTCTTGTCAAACCTCGGATATTAATATAAAATTAAGATAACAATTTATTATAGCATAAAATATAGTTAAAAGGAACGTTCGCATGACTAACCTAGAAATCGAATACAAGACCTTACTGACAAAGGACGAATATAACCGCCTCCTCTCTCAAATGACTCATGTCCCACCAGTTACCCAGACGAACTATTACATTGATACTGACCATTTTGATCTCAAGGCTCATAAAATGTCCCTTCGCATTCGCACCTTTGTTGCTGCTCCTGCTGAATTAACCTTAAAAGTCCCTGAAAAAGTTGGTAATCGCGAGTACAATTTAGAGCTTGATGACACCCAAGCAAAAGCTATCATTCAGACAGGACAGCTACCAAAATCAGCTATCCTTGATATTATCAGCACTCT (double strand) [relQ promoter (prelQ)]”: binds.

Where a protein sequence is shown, tags need not be part of it.
